Share of PSTVd loop 15 variants by leaf site

The pool varies loop 15 of the PSTVd intermediate strain in the pattern GGAAACCGNNNNNNC; wild type is GGAAACCGCUACUAC (upper and lower strand joined, each 5' to 3', the first 7 letters being the upper strand, closing pairs included).

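A pool of all variants was put on leaves of three Nicotiana benthamiana plants. Progeny were sequenced from the inoculated region (day 5), the margin of the inoculated leaf (day 10) and systemic leaves (day 12).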

Numbers give reads per thousand; 0 = not seen among the reads, higher = more abundant.
Each value is the mean of three plants.
"Pool" is the share in the plasmid pool used as inoculum, on the same scale.
The inoculated region was read from the minus strand, the other sites from the plus strand.
IR is the inoculated region, LM the leaf margin, Sys the systemic leaves.

sequence	pool	IR	LM	Sys
GGAAACCGGGACGGC	0.256	0.147	0.00668	0
GGAAACCGUGCUUGC	0.144	0.120	0.00668	0
GGAAACCGCAUACUC	0.208	0.0860	0.00539	0
GGAAACCGUCUAGUC	0.0960	0.110	0	0
GGAAACCGCUUAGUC	0.160	0.0884	0.0187	0
GGAAACCGACAGUCC	0.144	0.294	0.118	0.118
GGAAACCGCCGUUGC	0.144	0.0707	0.00539	0
GGAAACCGACAAAGC	0.192	0.0725	0.0241	0
GGAAACCGACCUGGC	0.176	0.0798	0	0
GGAAACCGCCUCGCC	0.144	0.111	0.0208	0
GGAAACCGCAAAGAC	0.176	0.136	0.0275	0
GGAAACCGGUGGUGC	0.256	0.0696	0.0175	0.00537
GGAAACCGAUUCCCC	0.256	0.0806	0	0
GGAAACCGAUACCCC	0.272	0.0832	0	0
GGAAACCGCAGGCAC	0.256	0.106	0.0187	0.00537
GGAAACCGUCUGGUC	0.272	0.291	0.347	0.00537
GGAAACCGCACAGUC	0.192	0.0822	0.0200	0
GGAAACCGUUUAGCC	0.192	0.112	0.0134	0
GGAAACCGGAGGUCC	0.352	0.0731	0.0121	0
GGAAACCGCAGUCGC	0.208	0.0962	0.0275	0
GGAAACCGUUUCUGC	0.256	0.0803	0.0121	0
GGAAACCGAAAGCAC	0.240	0.285	0.104	0.0268
GGAAACCGCCGAGAC	0.160	0.100	0.0121	0
GGAAACCGCUUUCAC	0.304	0.126	0	0
GGAAACCGCACGUGC	0.176	0.0994	0.0328	0
GGAAACCGCUAACUC	0.160	0.440	0.149	0.00537
GGAAACCGAGAAAUC	0.256	0.0567	0.0195	0
GGAAACCGGCGGUUC	0.288	0.341	0.0962	0.0666
GGAAACCGAUAGCUC	0.272	0.332	0.164	0.0107
GGAAACCGCACGCCC	0.224	0.107	0.0262	0
GGAAACCGCUCUGGC	0.256	0.0713	0.0134	0
GGAAACCGUAAACCC	0.272	0.0860	0	0.00760
GGAAACCGCAACACC	0.320	0.101	0.0121	0
GGAAACCGCCAUUUC	0.192	0.372	0.128	0.0794
GGAAACCGAUGAUCC	0.208	0.122	0.0187	0
GGAAACCGCGAACGC	0.160	0.0953	0.0128	0.00537
GGAAACCGCGGUCUC	0.224	0.526	0.0134	0.00504
GGAAACCGCAAUAGC	0.192	0.0893	0.00539	0
GGAAACCGCUGUCCC	0.304	0.0651	0.00668	0
GGAAACCGAUGAAAC	0.240	0.0795	0.0134	0
GGAAACCGAUACCAC	0.256	0.302	0.108	0.0926
GGAAACCGGCGUCAC	0.160	0.103	0.0200	0.00537
GGAAACCGGCUAGUC	0.208	0.0822	0.00668	0.00537
GGAAACCGCCCUAUC	0.336	0.171	0.00668	0.00537
GGAAACCGGUGUGCC	0.176	0.100	0.00539	0
GGAAACCGCGUCCAC	0.272	0.112	0.0200	0
GGAAACCGCGAUACC	0.320	0.0666	0.00539	0
GGAAACCGUUUGGAC	0.240	0.250	0.111	0.0291
GGAAACCGACUUCGC	0.208	0.0837	0.00668	0
GGAAACCGAAUUAGC	0.272	0.111	0	0
GGAAACCGGUUACAC	0.224	0.145	0.0134	0.00537
GGAAACCGGCAAUCC	0.160	0.104	0.00742	0
GGAAACCGAAUGAAC	0.272	0.160	0.00539	0
GGAAACCGGGUCGGC	0.256	0.180	0.00668	0
GGAAACCGAUGGCGC	0.176	0.0978	0.0108	0
GGAAACCGCGCCUUC	0.176	0.464	0.151	0.0107
GGAAACCGCAUUCCC	0.240	0.0952	0	0
GGAAACCGCUGCCGC	0.240	0.118	0.0303	0
GGAAACCGUUACGGC	0.192	0.0839	0.00539	0
GGAAACCGCGCGAAC	0.192	0.322	0.123	0.0718
GGAAACCGAAUAAUC	0.272	0.0759	0.0175	0
GGAAACCGUACUCAC	0.176	0.310	0.0800	0.0161
GGAAACCGUCAGGUC	0.144	0.278	0.120	0.0540
GGAAACCGUCCGGAC	0.176	0.329	0.111	0.0161
GGAAACCGCAAUCCC	0.208	0.145	0.00668	0
GGAAACCGAUUCAAC	0.224	0.0786	0.00668	0
GGAAACCGCUAAAGC	0.336	0.0932	0.00668	0
GGAAACCGUUUUUGC	0.240	0.143	0	0
GGAAACCGGGUAAAC	0.0960	0.177	0.00742	0.0158
GGAAACCGGGUAUAC	0.256	0.327	0.0869	0.0161
GGAAACCGAACUUUC	0.192	0.311	0.0141	0

The first 10 entries again:

For GGAAACCGGGACGGC (pool 0.256) the result was IR 0.147; LM 0.00668; Sys 0.
For GGAAACCGUGCUUGC (pool 0.144) the result was IR 0.120; LM 0.00668; Sys 0.
For GGAAACCGCAUACUC (pool 0.208) the result was IR 0.0860; LM 0.00539; Sys 0.
For GGAAACCGUCUAGUC (pool 0.0960) the result was IR 0.110; LM 0; Sys 0.
For GGAAACCGCUUAGUC (pool 0.160) the result was IR 0.0884; LM 0.0187; Sys 0.
For GGAAACCGACAGUCC (pool 0.144) the result was IR 0.294; LM 0.118; Sys 0.118.
For GGAAACCGCCGUUGC (pool 0.144) the result was IR 0.0707; LM 0.00539; Sys 0.
For GGAAACCGACAAAGC (pool 0.192) the result was IR 0.0725; LM 0.0241; Sys 0.
For GGAAACCGACCUGGC (pool 0.176) the result was IR 0.0798; LM 0; Sys 0.
For GGAAACCGCCUCGCC (pool 0.144) the result was IR 0.111; LM 0.0208; Sys 0.

Wild type was 33.9 per thousand in the pool and the most common sequence in every sample (inoculated region 202, 200, 159; leaf margin 724, 746, 710; systemic leaves 856, 883, 880).
Sequences that differ at fixed positions probably stem from PCR or sequencing errors, and defective variants can be carried along by functional ones.
With 43,870-66,106 reads a sample, very low values are single reads.

Data from the supplement of Wu et al. 2024, doi:10.1371/journal.ppat.1012142.